Literature values, collected in article PMC6534257, “Leishmania infantum arginase: biochemical characterization and inhibition by naturally occurring phenolic substances” (Journal of Enzyme Inhibition and Medicinal Chemistry, 2019).

Tested on: axenic amastigote forms of L. donovani
Set-up: method as in PMID 16569852
Conditions: L. donovani axenic amastigotes vs L9 cells ref 36; cited from earlier work

COc1cc(O)c2c(=O)c(O)c(-c3ccc(O)c(O)c3)oc2c1 [Rhamnetin, rhamnetin]
SI (parasite versus myoblast lineage cells L9): > 20
